In one data set the target is T1, OmpR (UniProt P0AA19).
T1 sequence (looked up, limits assumed): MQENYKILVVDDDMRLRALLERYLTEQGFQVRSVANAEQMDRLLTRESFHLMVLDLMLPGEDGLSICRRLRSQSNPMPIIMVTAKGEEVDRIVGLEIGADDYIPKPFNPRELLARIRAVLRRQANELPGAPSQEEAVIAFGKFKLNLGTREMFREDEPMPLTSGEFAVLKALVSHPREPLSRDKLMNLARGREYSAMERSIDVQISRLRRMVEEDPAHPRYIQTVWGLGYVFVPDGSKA
The experiment in a line: AFM. As to conditions: AFM: OmpR exchanged into 20 mM Tris, 200 mM NaCl at pH 6.1, 6.5, 6.8 or 7.2, recombinant protein, protein details: His (pET15b), probe letters rebuilt from the primers and the genome.

For a further data set, the target named is T2, OmpR~P (UniProt P0AA19).
T2 sequence (looked up, limits assumed): T1 sequence (looked up, limits assumed)
The experiment in a line: AFM. As to conditions: acetyl phosphate, level between OmpR at pH 6.8 and 6.1; AFM: OmpR exchanged into 20 mM Tris, 200 mM NaCl at pH 6.1, 6.5, 6.8 or 7.2; recombinant protein; protein details: His (pET15b); probe letters rebuilt from the primers and the genome.

For at least one entry, the source does not settle the construct or the ends of the probe. For some of these results: Weaker means in comparison with the reference protein, sequence or condition of that experiment. Protein sequences can lack the tags named with them.

As to “AATAGATGTACAAGCGCCATTTTGCTGTACAAATAACCTACAAAAAGCCCAACAAAAATAATTGCAAATAAACAAAGATTGCTGGAAATTATGCGGATGTTAATTATTTGTGAAATAGTTAACAAGCGTTATAGTTTTTCTGTGGTAGCACAGAATAATGAAAAGTGTGTAAAGAAGGGTAAAAAAAACCGAATGCGAGGCATCCGGTTGAAATAGGGGTAAACAGACATTCAGAAATGAATGACGGTAATAAATAAAGTTAATGATGATAGCGGGAGTTATTCTAGTTGCGAGTGAAGGTTTTGTTTTGACATTCAGTGCTGTCAAATACTTAAGAATAAGTTATTGATTTTAACCTTGAATTATTATTGCTTGATGTTAGGTGCTTATTTCGCCATTCCGCAATAATCTTAAAAAGTTCCCTTGCATTTACATTTTGAAACATCTATAGCGATAAATGAAACATCTTAAAAGTTTTAGTATCATATTCGTGTTGGATTATTCTGCATTTTTGGGGAGAATGGACTTGCCGACTGATTAATGAGGGTTAATCAGTATGCAGTGGCATAAAAAAGCAAATAAAGGCATATAACAGAGGGTTAATAACATGAAAGTTAAAGTACTGTCCCTCCTGGTCCCAGCTCTGCTGGTAGCAGGCGCAGCAAACGCTGCTGAAGTTTACAACAAAGACGGCAACAAA (double strand) [ompC promoter E. coli]”, the binding result with OmpR (pH 6.5, stimulated by acid pH) is “binds”.

On to “TTTGTTGCCGTCTTTATTATAAATTTCAGCCGCATTCGCTGCGCCCGCCACCAGCAGAGCTGGTACCAGGAGGGACAGTACTTTAACTTTCATGTTATTAACCCTCTGTTATATGCCTTTATTGCTTTTTTATGCCACTGCTTACTGGTTAACCCTCATTAACCAGTCGGCAAGTCCATTCTCCGCAAAAATACAGAATAATCCAACACGAATATGATACTAAAACTTTTAAGATGTTACAGTTATCTACATAGATGTTTCAAAATATGAATTTTACGGAACTTTTTTAAAGCAAAAATCAAGTAAAAATAAGCACAAATAGACAAAATATATTCACGAAACTTTTAAAATCAACGGGTTAAATTGATGAAATTCATAGCACTGAATGATAAAACAGAATCTTCATTCGCAACTAAAATAGTGACCGCTATCATCATTAACTTTATTTATTACCGTCATTCACTTCTGAATGTCTGTTTACCCCTATTTCAACCGGATGCTTCGCATTCGGTTTTTTTTACCCTTTTTCAGACACACCCGGCTGATTTATGCTACCTGCCTAAAACTATCACGGTTATTCACTACACTCCCCTGCTCGACCGTTCGTAAGACATTAGCAAATAATTTCTTGATATTTAGTGCTAAACATTTATAAGTAGTCTTTATATTTGTACCGTTCTGCGAAGGTTGTACGCTTTTC (double strand) [ompC promoter S. Typhimurium]”, for which the binding result is “binds” with OmpR (pH 6.1, more binding than pH 6.8); “binds more weakly” in the data set with OmpR (pH 6.8, discrete specific foci); “binds” with OmpR~P.
